A mixed list of measured activities; the numbers were collected in NIAID ChemDB.

All rows: tests in culture; agent: HIV-1; cell line: MT-2; measure: EC50

An empty or dashed field is not shown.

structure,strain or isolate,changes,read by,setting,result
CC(C)C1=C2[C@H]3CC[C@@H]4[C@@]5(C)CC[C@H](OC(=O)[C@H]6C[C@@H](C(=O)O)C6(C)C)C(C)(C)[C@@H]5CC[C@@]4(C)[C@]3(C)CC[C@@]2(CCN(CCN(C)C)Cc2cncnc2)CC1=O,92HT599,-,p24 / ELISA,-,<1 µM
COP(=O)(c1cc(C)cc(CCC#N)c1)c1c(C(N)=O)[nH]c2ccc(Cl)cc12,Clinical isolate,Y181C M184V,-,-,0.0015 µM
Cc1cc(NC(=O)N[C@@]23CC[C@]4(C)[C@H](CC[C@@H]5[C@@]6(C)CC[C@H](OC(=O)CC(C)(C)C(=O)O)C(C)(C)[C@@H]6CC[C@]54C)C2=C(C(C)C)C(=O)C3)ccn1,IIIB,-,RT activity,30% human serum,<0.199 µM
COc1ccc(N(C)C(=O)[C@H](Cc2ccccc2)NS(=O)(=O)NC(=O)N[C@@H](Cc2ccccc2)C(=O)N(C)c2ccc3scnc3c2)cc1,NL4-3,-,luciferase,-,0.03 µM
CCCCOc1ccc(-c2cnc(C)c([C@H](OC(C)(C)C)C(=O)O)c2N2CCC3(CCCC3)CC2)nc1,NL4-3,-,luminescence,-,4.5 µM
NC(N)=NCCC[C@H](N)C(=O)NC[C@@H]1OC(O[C@H]2[C@@H](O)[C@H](O[C@@H]3[C@@H](O)[C@H](NC(=O)[C@@H](N)CCCN=C(N)N)C[C@H](NC(=O)[C@@H](N)CCCN=C(N)N)[C@H]3O[C@H]3O[C@H](CNC(=O)[C@@H](N)CCCN=C(N)N)[C@@H](O)[C@H](O)[C@H]3NC(=O)[C@@H](N)CCCN=C(N)N)O[C@@H]2CO)[C@H](NC(=O)[C@@H](N)CCCN=C(N)N)[C@@H](O)[C@@H]1O,B (AZT/3TC-resistant),-,p24 / RT activity,-,3.6 µM
CC(C)=CCOc1cc(Nc2nccs2)ccc1C(=O)O,IIIB,-,cytopathic effect / MTT,-,>17 µM
CC(C)C1=C2C3CCC4[C@@]5(C)CC[C@H](OC(=O)CC(C)(C)C(=O)O)C(C)(C)C5CC[C@@]4(C)[C@]3(C)CC[C@@]2(NC(=O)N2CC[C@H](NC(=O)OC(C)(C)C)C2)CC1=O,IIIB,-,RT activity,30% human serum,<0.199 µM
Cc1ncc(-c2ccc(OCC(C)C)cn2)c(N2CCC3(CCCCCC3)C2)c1[C@H](OC(C)(C)C)C(=O)O,NL4-3,-,luminescence,-,43.2 µM
CC(C)C1=C2[C@H]3CC[C@@H]4[C@@]5(C)CC[C@H](OC(=O)[C@H]6C[C@@H](C(=O)O)C6(C)C)C(C)(C)[C@@H]5CC[C@@]4(C)[C@]3(C)CC[C@@]2([C@@H](O)CNC(=O)C(C)(C)NC(=O)c2ccc(OCCN3CCOCC3)cc2)CC1=O,92HT599,-,p24 / ELISA,-,<1 µM
CN(C(=O)[C@H](Cc1cc(F)cc(F)c1)NC(=O)NS(=O)(=O)N[C@@H](Cc1cc(F)cc(F)c1)C(=O)N(C)c1cnc2scnc2c1)c1cnc2scnc2c1,NL4-3,-,luciferase,-,8.92 µM
CC(C)C1=C2C3CCC4[C@@]5(C)CC[C@H](OC(=O)CC(C)(C)C(=O)O)C(C)(C)C5CC[C@@]4(C)[C@]3(C)CC[C@@]2(NC(=O)N[C@H](C)C(F)(F)F)CC1=O,IIIB,-,RT activity,30% human serum,<0.199 µM
CCC1(C)CCN(c2c(-c3ccc(OCC(C)C)cn3)cnc(C)c2[C@H](OC(C)(C)C)C(=O)O)CC1,NL4-3,-,luminescence,-,3 µM
C=CCN(C(=O)[C@H](Cc1cc(F)cc(F)c1)NC(=O)c1ccccc1C(=O)N[C@@H](Cc1cc(F)cc(F)c1)C(=O)N(CC=C)c1ccc(OC)cc1)c1ccc(OC)cc1,NL4-3,-,luciferase,-,1.79 µM
CC(C)C1=C2[C@H]3CC[C@@H]4[C@@]5(C)CC[C@H](OC(=O)CC(C)(C)C(=O)O)C(C)(C)[C@@H]5CC[C@@]4(C)[C@]3(C)CC[C@@]2(NC(=O)c2ccnn2C)CC1=O,IIIB,-,RT activity,30% human serum,<0.199 µM
Cc1ncc(-c2ccc(OCCc3ccc(F)cc3)cn2)c(N2CCC3(CCC3)CC2)c1[C@H](OC(C)(C)C)C(=O)O,NL4-3,-,luminescence,-,0.8 µM
Nc1ccc(CO[C@H]2C(=O)Nc3ccc(Cl)cc3[C@@]2(C#CC2CC2)C(F)(F)F)cc1,-,RT-K103N,-,-,<1.082 µM
Cc1nnc(NC(=O)N[C@@]23CC[C@]4(C)C(CCC5[C@@]6(C)CC[C@H](OC(=O)CC(C)(C)C(=O)O)C(C)(C)C6CC[C@]54C)C2=C(C(C)C)C(=O)C3)o1,IIIB,-,RT activity,30% human serum,<0.199 µM
CC(C)C1=C2[C@H]3CC[C@@H]4[C@@]5(C)CC[C@H](OC(=O)[C@H]6C[C@@H](C(=O)O)C6(C)C)C(C)(C)[C@@H]5CC[C@@]4(C)[C@]3(C)CC[C@@]2(CC(=O)NCc2ccc(C(F)(F)F)cc2)CC1=O,92HT599,-,p24 / ELISA,-,<1 µM
N#Cc1ccc(Nc2nccs2)cc1OCC1=CCCC1,IIIB,-,cytopathic effect / MTT,-,>1.7 µM
C[C@H](Cn1cnc2c(N)ncnc21)OCP(=O)(O)O,Clinical isolate,A62V/V75I/F77L/F116L/Q161M/M184V,recombinant virus assay,-,0.0036 µM
CCCCOc1ccc(-c2cnc(C)c([C@H](OC(C)(C)C)C(=O)O)c2N2CCC3CCCCC3C2)nc1,NL4-3,-,luminescence,-,31.8 µM
Nc1ccccc1CO[C@H]1C(=O)Nc2ccc(Cl)cc2[C@@]1(C#CC1CC1)C(F)(F)F,RF,-,-,-,<0.115 µM
N#Cc1ccc(Nc2nccs2)cc1OCc1ccoc1,IIIB,-,cytopathic effect / MTT,-,>4 µM
COc1cnc(-n2cnc(C)n2)c2[nH]cc(C(=O)C(=O)N3CCN(C(=O)c4ccccc4)CC3)c12,MN,-,p24 / ELISA,-,0.0148 µM
Cc1ncc(-c2ccc(OCC(C)C)cn2)c(N2CCC3(CC2)CC3(F)F)c1[C@H](OC(C)(C)C)C(=O)O,NL4-3,-,luminescence,-,9.4 µM
CC(C)C1=C2[C@H]3CC[C@@H]4[C@@]5(C)CC[C@H](OC(=O)[C@H]6C[C@@H](C(=O)O)C6(C)C)C(C)(C)[C@@H]5CC[C@@]4(C)[C@]3(C)CC[C@@]2([C@@H](O)CNC(=O)C(C)(C)NC(=O)CN2CCOCC2)CC1=O,92HT599,-,p24 / ELISA,-,<1 µM
Cc1ccc(C)n1-c1ccc(C(=O)O)c(O)c1,SF2 X4R5 CLADE B,-,p24,-,1.86 µM
CC(C)C1=C2[C@H]3CC[C@@H]4[C@@]5(C)CC[C@H](OC(=O)[C@H]6C[C@@H](C(=O)O)C6(C)C)C(C)(C)[C@@H]5CC[C@@]4(C)[C@]3(C)CC[C@@]2([C@@H](O)CNCC(F)NC(=O)c2ccc(Cl)cc2)CC1=O,92HT599,-,p24 / ELISA,-,<1 µM
Cc1ncc(-c2ccc(OCC3CC3)cn2)c(N2CCC3(CCCC3)CC2)c1[C@H](OC(C)(C)C)C(=O)O,NL4-3,-,luminescence,-,9.8 µM
O=C1CC(C#CC2CC2)(C(F)(F)F)c2cc(Cl)ccc2N1,RF,-,-,-,<0.014 µM
Nc1nc(NC2CC2)c2ncn([C@H]3C=C[C@@H](CO)C3)c2n1,Clinical isolate,T69ins/K70R/M184V/K219Q,recombinant virus assay,-,1.232 µM
O=C1Nc2ccc(Cl)cc2[C@@](C#CC2CC2)(C(F)(F)F)[C@H]1OCc1ccncc1,-,RT-L100I K103N,-,-,<4.83 µM
COCc1ccnc(Nc2ccc(Cl)c(OCC=C(C)C)c2)n1,IIIB,-,cytopathic effect / MTT,-,>25 µM
CC(C)C1=C2[C@H]3CC[C@@H]4[C@@]5(C)CC[C@H](OC(=O)[C@@H]6C[C@H](C(=O)O)C6(C)C)C(C)(C)[C@@H]5CC[C@@]4(C)[C@]3(C)CC[C@@]2(CCNCc2ccc(Cl)cc2)CC1=O,92HT599,-,p24 / ELISA,-,<1 µM
Cc1ccccc1C(=O)N[C@@]12CC[C@]3(C)C(CC[C@@H]4[C@@]5(C)CC[C@H](OC(=O)CC(C)(C)C(=O)O)C(C)(C)[C@@H]5CC[C@]43C)C1=C(C(C)C)C(=O)C2,IIIB,-,RT activity,30% human serum,<0.199 µM
COc1ccc(N(C)C(=O)[C@H](Cc2ccccc2)NC(=O)CNC(=O)NCC(=O)N[C@@H](Cc2ccccc2)C(=O)N(C)c2ccc(OC)cc2)cc1,NL4-3,-,luciferase,-,1.42 µM
Cc1ncc(-c2cnc(OCC(C)C)c(F)c2)c(N2CCC3(CCC3)CC2)c1[C@H](OC(C)(C)C)C(=O)O,NL4-3,-,luminescence,-,123.2 µM
CC(C)C1=C2C3CCC4[C@@]5(C)CC[C@H](OC(=O)CC(C)(C)C(=O)O)C(C)(C)C5CC[C@@]4(C)[C@]3(C)CC[C@@]2(NC(=O)c2cncnc2)CC1=O,IIIB,-,RT activity,30% human serum,<0.199 µM
O=C1Nc2ccc(Cl)cc2[C@@](C#CC2CC2)(C(F)(F)F)[C@H]1NCc1ccccc1,RF,-,-,-,<0.218 µM
CC(C)C1=C2[C@H]3CC[C@@H]4[C@@]5(C)CC[C@H](OC(=O)CC(C)(C)C(=O)O)C(C)(C)[C@@H]5CC[C@@]4(C)[C@]3(C)CC[C@@]2(NC(=O)c2cnn(C)c2)CC1=O,IIIB,-,RT activity,30% human serum,<0.199 µM
COc1ccc(N(C)C(=O)[C@H](Cc2ccccc2)NC(=O)Cn2c(=O)n(CC(=O)N[C@@H](Cc3ccccc3)C(=O)N(C)c3ccc(OC)cc3)c3cc(Cl)ccc32)cc1,NL4-3,-,luciferase,-,0.08 µM
Cc1ccc(C(=O)NC[C@H](O)[C@@]23CC[C@]4(C)[C@H](CC[C@@H]5[C@@]6(C)CC[C@H](OC(=O)[C@H]7C[C@@H](C(=O)O)C7(C)C)C(C)(C)[C@@H]6CC[C@]54C)C2=C(C(C)C)C(=O)C3)cn1,92HT599,-,p24 / ELISA,-,<1 µM
CC(C)C1=C2[C@H]3CC[C@@H]4[C@@]5(C)CC[C@H](OC(=O)CC(C)(C)C(=O)O)C(C)(C)[C@@H]5CC[C@@]4(C)[C@]3(C)CC[C@@]2(NC(=O)Nc2cncnc2)CC1=O,IIIB,-,RT activity,30% human serum,<0.199 µM

The first 4 rows once more:

structure | strain or isolate | changes | read by | setting | result
CC(C)C1=C2[C@H]3CC[C@@H]4[C@@]5(C)CC[C@H](OC(=O)[C@H]6C[C@@H](C(=O)O)C6(C)C)C(C)(C)[C@@H]5CC[C@@]4(C)[C@]3(C)CC[C@@]2(CCN(CCN(C)C)Cc2cncnc2)CC1=O | 92HT599 | - | p24 / ELISA | - | <1 µM
COP(=O)(c1cc(C)cc(CCC#N)c1)c1c(C(N)=O)[nH]c2ccc(Cl)cc12 | Clinical isolate | Y181C M184V | - | - | 0.0015 µM
Cc1cc(NC(=O)N[C@@]23CC[C@]4(C)[C@H](CC[C@@H]5[C@@]6(C)CC[C@H](OC(=O)CC(C)(C)C(=O)O)C(C)(C)[C@@H]6CC[C@]54C)C2=C(C(C)C)C(=O)C3)ccn1 | IIIB | - | RT activity | 30% human serum | <0.199 µM
COc1ccc(N(C)C(=O)[C@H](Cc2ccccc2)NS(=O)(=O)NC(=O)N[C@@H](Cc2ccccc2)C(=O)N(C)c2ccc3scnc3c2)cc1 | NL4-3 | - | luciferase | - | 0.03 µM

ECn is the concentration giving n% inhibition of infection, replication or growth. Rows are shuffled and stem from different studies.